Pooled drug test results. Numbers come from NIAID ChemDB, via PubChem.

Common to all: growth or infection tests; organism: Varicella zoster virus; read by: cytopathic effect; endpoint: EC50

Rows are shuffled and stem from different studies. An empty or dashed field is not shown. a–b is a range or a potency band. ECn is the concentration giving n% inhibition of infection, replication or growth.

SMILES	cells	strain	result
CCCCCOc1nc(N)nc2c1ncn2/C=C1/C[C@@H]1CO	HFF	-	>65.9 µM
CC1(C)[C@@H](CO)CC[C@@]1(C)Cn1nnc2c(N)ncnc21	HEL	07/1 (TK-)	>50 µg/mL
Cc1cn(C(CCO)OCCO)c(=O)[nH]c1=O	HFF	-	127 µM
Nc1ccn(C[C@@H](CO)OCP(=O)(O)O)c(=O)n1	HEL	Oka acyclovir-resistant	0.09 µM
CC1(C)[C@@H](CO)CC[C@@]1(C)Cn1nnc2c(Cl)ncnc21	HEL	YS	>50 µg/mL
Nc1nc(NC2CC2)c2ncn(/C=C3/C[C@@H]3CO)c2n1	HFF	-	7 µM
Cc1cn(C(CCN=[N+]=[N-])OCCO)c(=O)[nH]c1=O	HFF	-	>200 µM
CC(C)CS[C@@H]1C=C[C@H](n2cnc3c(N)ncnc32)C1	HEL	OKA	>20 µg/mL
CCCCCCCC/C=C/CCCCCCCC(=O)O	HEL	YS/R (TK-)	>100 µM
Nc1nc(OCC2CC2)c2ncn(/C=C3/C[C@@H]3CO)c2n1	HFF	-	0.5 µM
C[C@H](Cn1nc2ncnc(N)c2n1)OCP(=O)(O)O	HEL	07/1 (TK-)	5 µg/mL
CCOc1ccc(-c2cc3cn([C@H]4C[C@H](O)[C@@H](CO)O4)c(=O)nc3o2)cc1	HEL	YS	<0.5 µM
Nc1nc2c(ncn2[C@@H]2C=C[C@H](CO)[C@@H](O)C2)c(=O)[nH]1	E6SM	07/1 (TK-)	2.1 µg/mL
CC1(C)[C@@H](CO)CC[C@@]1(C)Cn1nnc2c(=O)[nH]cnc21	HEL	YS	>50 µg/mL
Nc1nc2nn(CCOCP(=O)(O)O)nc2c(=O)[nH]1	HEL	YS (TK+)	40 µg/mL
Nc1nc2c(ncn2CCCC(O)CF)c(=O)[nH]1	HEL	YS/R (TK-)	>50 µg/mL
O=c1[nH]c(=O)n([C@@H]2O[C@H](CO)[C@@H](O)[C@@H]2O)cc1/C=C/Br	HEL	Oka PFA-resistant/B	0.00027 µM
Nc1nc2c(ncn2COCCO)c(=O)[nH]1	-	-	0.1 µg/mL
O=C(O)CP(=O)(O)O	HEF	VEX411	20 µg/mL
Nc1nc2c(ncn2C[C@H](CO)OCP(=O)(O)O)c(=O)[nH]1	HEL	-	0.056 µM
CCCCCCCC/C=C/CCCCCCCC(=O)OCC(CO)OCn1cnc2c(=O)[nH]c(N)nc21	HEL	07/1 (TK-)	37 µM
CCCCCOc1ccc(-c2cc3cn([C@H]4C[C@H](O)[C@@H](CO)O4)c(=O)nc3o2)cc1	HEL	YS	<0.5 µM
NC1=NC2C(C=CN2CC(CO)CCO)C(=O)N1	HEL	YS	0.01 µg/mL
COC(=O)C(C)(C)NP(=O)(OC[C@H]1O[C@@H](n2cc(/C=C/Br)c(=O)[nH]c2=O)C[C@@H]1O)Oc1ccccc1	HEL	YS (TK-)	>200 µM
Nc1ncnc2c1ncn2C[C@@H](CO)OCP(=O)(O)O	HEL	OKA	0.004 µg/mL
Cc1cn(C(CF)CCCO)c(=O)[nH]c1=O	HEL	YS/R (TK-)	>50 µg/mL
CC1(C)[C@@H](CO)CC[C@@]1(C)Cn1cc(I)c(=O)[nH]c1=O	HEL	OKA	>50 µg/mL
Nc1ccn(CC[C@H](O)CCO)c(=O)n1	HEL	07/1 (TK-)	>400 µg/mL
CCCOc1ccc(-c2cc3cn([C@H]4C[C@H](O)[C@@H](CO)O4)c(=O)nc3o2)cc1	HEL	OKA	<0.5 µM
O=c1[nH]c(=O)n([C@H]2C[C@H](O)[C@@H](CO)O2)cc1/C=C/I	HEF	VEX411	0.01 µg/mL
Nc1nc(N)c2ncn(C[C@H](CO)OCP(=O)(O)O)c2n1	HEL	-	2.1 µM
Nc1ccn(C(CF)CCCO)c(=O)n1	HEL	YS	>50 µg/mL
Nc1ncnc2c1ncn2CC[C@H](O)CCO	HEL	YS/R (TK-)	>400 µg/mL
NC1=NC2C(C=CN2CC(CO)CCO)C(=O)N1	VERO	-	0.01–0.1 µM
Nc1ncnc2c1ncn2C[C@H](O)CO	HEL	YS	10 µg/mL
Nc1nc2c(ncn2[C@H]2C=C[C@@H](CO)[C@H](O)C2)c(=O)[nH]1	E6SM	YS	1.2 µg/mL
C=C[C@@H](O)C1=C[C@@H](n2cnc3c(N)ncnc32)[C@H](O)[C@@H]1O	HEL	07/1 YS/R (TK-)	>50 µg/mL
Nc1nc(NCC2CC2)c2ncn(/C=C3/C[C@@H]3CO)c2n1	HFF	-	10.1 µM
CO[C@H](CO)[C@@H](O)CCn1cc(C)c(=O)[nH]c1=O	HEL	OKA	>400 µg/mL
Nc1nc(F)nc2c1ncn2[C@@H]1C=C(CO)[C@@H](O)[C@H]1O	HeLa	07/1 YS/R (TK-)	100 µg/mL
Nc1ncnc2c1ncn2[C@@H]1C=C(CO)[C@@H](O)[C@H]1O	HEL	07/1 YS/R (TK-)	9 µg/mL
Nc1nc2c(ncn2C[C@@H](CF)OCP(=O)(O)O)c(=O)[nH]1	HEL	-	≥300 µM
COC(=O)[C@H](C)NP(=O)(OC[C@H]1O[C@@H](n2cc(/C=C/Br)c(=O)[nH]c2=O)C[C@@H]1O)Oc1ccc(Cl)cc1	HEL	YS (TK-)	>20 µM
Nc1nc2c(ncn2[C@@H]2C=C[C@H](CO)CC2)c(=O)[nH]1	VERO	-	1–10 µM
COc1ncnc2c1ncn2[C@@H]1O[C@H](CO)[C@@H](O)[C@@H]1O	MRC-5	5 clinical isolates	1.8 µM
COC(=O)[C@H](C)NP(=O)(OCC1C/C1=C/n1cnc2c(N)ncnc21)Oc1ccccc1	HFF	-	7.6 µM
O=C(O)P(=O)(O)O	HEL	Clinical isolate VZV-20	95.3 µM
Cc1cn([C@H]2C/C(=N\O)[C@@H](CO)O2)c(=O)[nH]c1=O	HEL	YS/R (TK-)	>200 µg/mL
C=C[C@H](O)C1=C[C@@H](n2cnc3c(N)ncnc32)[C@H](O)[C@@H]1O	HEL	OKA YS	>50 µg/mL
Nc1nc2c(ncn2CC[C@H](O)CCO)c(=O)[nH]1	HEL	07/1 (TK-)	>400 µg/mL
Nc1ncnc2nn(C[C@@H](CO)OCP(=O)(O)O)nc12	HEL	YS (TK+)	>100 µg/mL
C[C@H](Cn1cnc2c(=O)[nH]c(N)nc21)OCP(=O)(O)O	HEL	-	8.2 µM
Nc1ncnc2c1ncn2[C@@H]1O[C@H](CO)[C@@H](O)[C@@H]1O	HEF	VEX411	2.5 µg/mL
O=c1nc2oc(-c3ccc(Br)cc3)cc2cn1[C@H]1C[C@H](O)[C@@H](CO)O1	HEL	YS/R (TK-)	>50 µM
Nc1nc2c(ncn2COC(CO)CO)c(=O)[nH]1	HEL	OKA	0.73 µM
Cc1cn(C(CCO)SCCO)c(=O)[nH]c1=O	HFF	-	>200 µM
Nc1ncnc2nn(C[C@@H](CF)OCP(=O)(O)O)nc12	HEL	YS/R (TK-)	>10 µg/mL
Nc1ncc2ncn(C[C@@H](CF)OCP(=O)(O)O)c2n1	HEL	-	>100 µM
Nc1nc2c(ncn2CCC(CO)CO)c(=O)[nH]1	HEL	Oka acyclovir-resistant	26.9 µM
Nc1ncnc2c1ncn2C[C@@H](CO)OCP(=O)(O)O	HEL	-	0.49 µM
Nc1nc2c(ncn2[C@@H]2C[C@H](CO)[C@H]2CO)c(=O)[nH]1	VERO	-	0.01–0.1 µM
CCCCCSc1nc(N)nc2c1ncn2/C=C1/C[C@@H]1CO	HFF	-	2.3 µM

Repeating the first 9 entries:

| SMILES | cells | strain | result |
|---|---|---|---|
| CCCCCOc1nc(N)nc2c1ncn2/C=C1/C[C@@H]1CO | HFF | - | >65.9 µM |
| CC1(C)[C@@H](CO)CC[C@@]1(C)Cn1nnc2c(N)ncnc21 | HEL | 07/1 (TK-) | >50 µg/mL |
| Cc1cn(C(CCO)OCCO)c(=O)[nH]c1=O | HFF | - | 127 µM |
| Nc1ccn(C[C@@H](CO)OCP(=O)(O)O)c(=O)n1 | HEL | Oka acyclovir-resistant | 0.09 µM |
| CC1(C)[C@@H](CO)CC[C@@]1(C)Cn1nnc2c(Cl)ncnc21 | HEL | YS | >50 µg/mL |
| Nc1nc(NC2CC2)c2ncn(/C=C3/C[C@@H]3CO)c2n1 | HFF | - | 7 µM |
| Cc1cn(C(CCN=[N+]=[N-])OCCO)c(=O)[nH]c1=O | HFF | - | >200 µM |
| CC(C)CS[C@@H]1C=C[C@H](n2cnc3c(N)ncnc32)C1 | HEL | OKA | >20 µg/mL |
| CCCCCCCC/C=C/CCCCCCCC(=O)O | HEL | YS/R (TK-) | >100 µM |